Pooled drug test results. Numbers come from NIAID ChemDB, via PubChem.

All rows: target-level tests; species: Hepatitis C virus; protein: NS3 protease

Lines come from different laboratories, so protocols vary.

structure,measure,method,strain or isolate,result
C=C[C@@H]1C[C@]1(NC(=O)[C@@H]1C[C@@H](Oc2cc(-c3ccccc3)nc3cc(OC)ccc23)C[C@H]1C(=O)N[C@H](C(=O)N[C@H](C(=O)NC)C1CCCCC1)C(C)(C)C)C(=O)O,Ki,,,0.022 µM
CC(=O)N[C@H](C(=O)N[C@H](C(=O)N1C[C@H](Oc2cccnc2)CC1C(=O)NC1(C(=O)O)CC1)C(C)C)C1CCCCC1,IC50,,,190 µM
CN(C)c1cccc2c(S(=O)(=O)N(C(=O)CC(N)NC(=O)[C@H](CCC(=O)O)NC(=O)[C@@H](N)CC(=O)O)[C@@H](CCC(=O)O)C(=O)N[C@@H](CC3CCCCC3)C(=O)N[C@@H](CS)C(=O)O)cccc12,IC50,,,0.4 µM
CC(C)c1cccc(O)c(=O)c1,IC50,,,>200 µM
CCC(CC)C(O)C(=O)N1C[C@H](C2CCCC2)C[C@@H]1C(=O)N[C@@H](CC(F)F)C(=O)NCCc1c(F)cc(C(=O)O)cc1F,IC50,,,50 µM
C=C[C@@H]1C[C@]1(NC(=O)[C@@H]1C[C@@H](Oc2cc(-c3ccccc3)nc3cc(OC)ccc23)CN1C(=O)[C@@H](NC(=O)[C@@H](NC(C)=O)C1CCCCC1)C(C)(C)C)C(=O)O,Ki,,,0.001 µM
C=C(NC(=O)[C@H](CC1CCCCC1)NC(=O)[C@H](CCC(=O)O)NC(=O)[C@@H](NC(=O)[C@H](CCC(=O)O)NC(=O)[C@@H](N)CC(=O)O)C(c1ccccc1)c1ccccc1)C(=O)O,IC50,,,7.1 µM
CC(C)(C)NC(=O)N[C@H](C(=O)C1CC2C([C@H]1C(=O)N[C@H](CC1CCC1)C(=O)C(N)=O)C2(C)C)C(C)(C)C,Ki,,,3 µM
C=C[C@@H]1C[C@]1(NC(=O)[C@@H]1C[C@@H](Oc2cc(-c3ccccc3)nc3cc(CO)ccc23)CN1C(=O)[C@@H](N)C(C)(C)C)C(=O)O,IC50,radiometric,1b,3 µM
C/C=C/C(=O)[C@H](CC)NC(=O)[C@H](CC1CCCCC1)NC(=O)[C@@H](NC(=O)[C@H](CC(C)C)NC(=O)[C@@H](CCC(=O)O)NC(=O)[C@H](CC(=O)O)NC(C)=O)[C@H](C)CC,Ki,,,0.2 µM
CC[C@H](C)[C@H](NC(=O)[C@H](CC(C)C)NC(=O)[C@@H](CC(C(=O)O)C(=O)O)NC(=O)[C@@H](N)CC(=O)O)C(=O)N[C@@H](CC1CCCCC1)C(=O)N[C@@H](CS)C(=O)O,IC50,,,0.0015 µM
COc1ccc(-c2ccccc2O[C@@H]2CC(C(=O)NC3(C(=O)O)CC3)N(C(=O)[C@@H](NC(=O)[C@@H](NC(C)=O)C3CCCCC3)C(C)C)C2)cc1,IC50,,,>200 µM
O=C(O)c1cc(F)c(CCNC(=O)[C@H](CC(F)F)NC(=O)[C@H]2C[C@@H](C3CCCC3)CN2C(=O)[C@@H](O)c2ccccc2)c(F)c1,IC50,,,>100 µM
CC(C)[C@H](NC(=O)[C@H](CCC(=O)O)NC(=O)[C@@H](N)CC(=O)O)C(=O)N[C@H](C(=O)N1CCC[C@H]1C(=O)NC(C)(C)B1O[C@@H]2CC3CC(C3(C)C)[C@]2(C)O1)C(C)C,Ki,,,>100 µM
CCC[C@H](NC(=O)[C@@H]1C[C@@H](Oc2cc(-c3ccccc3)nc3cc(OC)ccc23)C[C@H]1C(=O)N[C@H](C(=O)N[C@H](C(=O)OC)C1CCCCC1)C(C)(C)C)C(=O)O,Ki,,,1.2 µM
CCCC[C@H](NC(=O)[C@H](CC(C)C)NC(=O)[C@@H](NC(=O)[C@](C)(Cc1ccccc1)NC(=O)[C@H](CCC(=O)O)NC(=O)[C@H](CC(=O)O)NC(=O)Cc1ccc2ccccc2c1)C(C)(C)C)C(=O)C(N)=O,IC50,,,0.09 µM
CC1=CC(=O)N(Cc2ccccc2)C(=O)C1,IC50,,,47 µM
CC(=O)N[C@H](C(=O)N[C@H](C(=O)N1C[C@H](Oc2ccc(F)cc2)CC1C(=O)NC1(C(=O)O)CC1)C(C)C)C1CCCCC1,IC50,,,100 µM
C=C[C@@H]1C[C@]1(NC(=O)[C@@H]1C[C@@H](Oc2cc(-c3ccccc3)nc3cc(OC)ccc23)C[C@H]1C(=O)N[C@H](C(=O)N(C)[C@H](C(=O)NC)C1CCCCC1)C(C)(C)C)C(=O)O,Ki,,,>10 µM
O=c1c(CN2CCOCC2)cc(CN2CCOCC2)cc(CN2CCOCC2)c1O,IC50,,,125 µM
CCC[C@H](NC(=O)[C@H](CC1CCCCC1)NC(=O)[C@@H](NC(=O)[C@H](CC(C)C)NC(=O)[C@@H](CCC(=O)O)NC(=O)[C@H](CC(=O)O)NOC(=O)CCC(=O)O)[C@H](C)CC)c1nn[nH]n1,Ki,,,0.16 µM
CC[C@@H](C=O)NC(=O)[C@H](CC(C)C)NC(=O)[C@@H](NC(=O)[C@@H](NC(=O)c1ccc(N(C)C)cc1)C(C)C)C(C)C,Ki,,,1–100 µM
CCC[C@H](NC(=O)[C@H](CC1CCCCC1)NC(=O)[C@H](CCC(=O)O)NC(=O)[C@H](CC(C)C)NC(=O)[C@H](CCC(=O)O)NC(=O)[C@@H](N)CC(=O)O)C(=O)O,IC50,,,1.3 µM
CC[C@H](NC(=O)[C@H](CC1CCCCC1)NC(=O)C(NC(=O)[C@H](CC(C)C)NC(=O)c1cnccn1)[C@@H](C)CC)C(=O)C(=O)NCC(=O)NS(=O)(=O)c1ccccc1,IC50,,,12 µM
CC[C@H](NC(=O)[C@H](CC(C)C)NC(=O)[C@@H](NC(=O)[C@@H](NC(=O)[C@H](CC(=O)O)NC(=O)[C@@H](N)CCC(=O)O)C(C)C)C(C)C)C(=O)c1nc2ccccc2o1,Ki,,,1–100 µM
C=C[C@@H]1C[C@]1(NC(=O)[C@@H]1C[C@@H](Oc2cc(-c3ccccc3)nc3cc(CO)ccc23)CN1C(=O)[C@@H]1CSCN1)C(=O)O,IC50,radiometric,1b,13 µM
CC[C@@H](C=O)NC(=O)[C@@H]1C[C@@H](OCc2noc(-c3ccccc3)n2)CN1C(=O)[C@@H](NC(=O)[C@@H](NC(=O)c1cnccn1)C(C)C)C(C)C,Ki,,,1–100 µM
CC(C)C[C@H](NC(=O)[C@H](CC(C(=O)O)C(=O)O)NC(=O)[C@@H](N)CC(=O)O)C(=O)N[C@@H](CCC(=O)O)C(=O)N[C@@H](CC1CCCCC1)C(=O)N[C@@H](CS)C(=O)O,IC50,,,0.055 µM
CC[C@H](NC(=O)[C@H](CC1CCCCC1)NC(=O)[C@@H](NC(=O)[C@H](CC(C)C)NC(=O)[C@@H](CCC(=O)O)NC(=O)[C@H](CC(=O)O)NC(C)=O)[C@H](C)CC)C(=O)C(=O)/C=C/c1nccs1,Ki,,,2.3 µM
CCC[C@H](NC(=O)[C@@H]1C[C@@H](Oc2cc(-c3ccccc3)nc3cc(OC)ccc23)C[C@H]1C(=O)N[C@H](C(=O)N[C@H](C(=O)OC)C1CCCCC1)C(C)C)C(=O)O,Ki,,,2.3 µM
CC(=O)N[C@H](C(=O)N[C@H](C(=O)N1C[C@H](Oc2ccccc2Br)CC1C(=O)NC1(C(=O)O)CC1)C(C)C)C1CCCCC1,IC50,,,25 µM
O=c1cccccc1O,IC50,,,>200 µM
CCC(NC(=O)[C@@H]1[C@H]2CC=C[C@H]2CN1C(=O)[C@@H](NC(=O)[C@@H](NC(=O)c1cnccn1)C(C)C)C(C)C)C(=O)C(=O)N[C@@H](Cc1ccccc1)C(=O)O,Ki,,,0.09 µM
CC(=O)N[C@H](C(=O)N[C@H](C(=O)N1C[C@H](Oc2ccccc2-c2ccccc2)CC1C(=O)NC1(C(=O)O)CC1)C(C)C)C1CCCCC1,IC50,,,>200 µM
CC[C@H](NC(=O)[C@H](CC(C)C)NC(=O)[C@@H](NC(=O)[C@@H](NC(=O)c1cnccn1)C(C)C)C(C)C)C(=O)C(=O)N[C@@H](CC)c1ccccc1,Ki,,,>100 µM
CNC(=O)[C@@H](NC(=O)[C@@H](NC(=O)[C@@H]1C[C@H](Oc2cc(-c3ccccc3)nc3cc(OC)ccc23)C[C@H]1C(=O)N[C@@H](CC(F)F)C(=O)O)C(C)(C)C)C1CCCCC1,Ki,,,0.56 µM

ICn is the concentration giving n% inhibition. Blank or dashed fields: not listed here. a–b is a range or a potency band.